A mixed list of measured activities; the numbers were collected in NIAID ChemDB.

Common to all: whole-cell or culture tests; agent: HIV-1; measure: EC50

Blank or dashed fields: not listed here. Rows are shuffled and stem from different studies. ECn is the concentration giving n% inhibition of infection, replication or growth.

| SMILES | strain or isolate | read by | mutations | cell line | conditions | result |
|---|---|---|---|---|---|---|
| CC(=O)N1CCC(C(=O)N(CCCN2CCC(Cc3ccc(C(N)=O)cc3)CC2)c2ccc(C)c(Cl)c2)CC1 | KK Clinical isolates | p24 |  | PBMC |  | 0.0012 µM |
| COCCOCCOc1ccc(-c2cnc(C)c([C@H](OC(C)(C)C)C(=O)O)c2N2CCC(C)(C)CC2)nc1 | NL4-3 | luminescence |  | MT-2 |  | 0.0042 µM |
| CCc1cc(=O)c2ccc3c(c2o1)[C@@H](OC(=O)C12CCC(C)(C(=O)O1)C2(C)C)[C@@H](OC(=O)C12CCC(C)(C(=O)O1)C2(C)C)C(C)(C)O3 | RTMDR1 | p24 | RT-M41L L74V V106A T215Y | MT-4 |  | 0.06 µM |
| COc1c(Cl)cc(C(=CCCNC(=O)C[C@H]2CC[C@]3(C)C4CC[C@@]5(C)C(CC[C@@H]5CC(=O)NCCC=C(c5cc(Cl)c(OC)c(C(=O)O)c5)c5cc(Cl)c(OC)c(C(=O)O)c5)C4CC[C@H]3C2)c2cc(Cl)c(OC)c(C(=O)O)c2)cc1C(=O)O | IIIB | cytopathic effect / MTT |  | CEM + CEM-SS |  | 47 µM |
| Cc1cn([C@@H]2CC[C@H](COC(=O)CCCCCCCCC(=O)OC[C@H]3O[C@@H](n4cc(C)c(=O)[nH]c4=O)C[C@@H]3F)O2)c(=O)[nH]c1=O |  |  |  | PBMC |  | 0.001 µM |
| O=C(O)c1cn(-c2ccc(Cn3cncn3)cc2)c2c(OC(F)F)c(N3CC=C(c4ccccc4)CC3)c(F)cc2c1=O | IIIB | p24 |  | PBMC |  | 0.0038 µM |
| CCCCCn1ccc(=O)c2cnc(-c3ccncc3)nc21 | IIIB | p24 / trypan blue |  | H9 |  | 3 µM |
| CC(C)CCC[C@@H](C)[C@H]1CCC2C3CCC4C[C@@H](OCc5cn([C@@H]6O[C@H](COS(=O)(=O)[O-])[C@@H](O[C@H]7O[C@H](COS(=O)(=O)[O-])[C@@H](O[C@H]8O[C@H](COS(=O)(=O)[O-])[C@@H](OS(=O)(=O)[O-])[C@H](OS(=O)(=O)[O-])[C@H]8OS(=O)(=O)[O-])[C@H](OS(=O)(=O)[O-])[C@H]7OS(=O)(=O)[O-])[C@H](OS(=O)(=O)[O-])[C@H]6OS(=O)(=O)[O-])nn5)CC[C@]4(C)C3CC[C@@]21C | IIIB | p24 / ELISA / antigen |  | H9 |  | 7 µg/mL |
| CCCc1cc(=O)oc2c3c(c4c(c12)OC(C)(C)CC4)O[C@H](C)[C@@H](C)C3=O |  | cytopathic effect / XTT | RT-M184I |  |  | 6.47 µM |
| CCn1ccc(=O)c2ccc(-c3ccncc3)nc21 | IIIB | p24 / trypan blue |  | H9 |  | 15 µM |
| CCCCO[C@H](C(=O)O)c1c(C)ncc(-c2ccc(OCC(F)(F)CC)cn2)c1N1CCC(C)(C)CC1 | NL4-3 | luminescence |  | MT-2 |  | 0.0316 µM |
| CCCCCCC(C)[C@H]1CCC2C3CC[C@H]4C[C@@H](CCC=C(c5cc(Cl)c(O)c(C(=O)O)c5)c5cc(Cl)c(O)c(C(=O)O)c5)CC[C@]4(C)C3CC[C@@]21C | RF | cytopathic effect / MTT |  | CEM + CEM-SS |  | 5.1 µM |
| CCc1ccc(CCN=C2NC(=O)/C(=C/c3ccc(-c4ccc(C(=O)O)c(O)c4)o3)S2)cc1 |  | β-galactosidase |  | TZM-bl | pseudotyped | 5.6 µM |
| CCOCC(C)Oc1ncc(-c2cnc(C)c([C@H](OC(C)(C)C)C(=O)O)c2N2CCC(C)(C)CC2)cc1F | NL4-3 | luminescence |  | MT-2 |  | 0.0028 µM |
| COc1c(Cl)cc(C(=CCCCCN(C(=O)C=C(c2cc(Cl)c(OC)c(C(=O)O)c2)c2cc(Cl)c(OC)c(C(=O)O)c2)[C@H]2CC[C@]3(C)C4CC[C@@]5(C)C(CC[C@@H]5C(C)CCCC(C)C)C4CC[C@H]3C2)c2cc(Cl)c(OC)c(C(=O)O)c2)cc1C(=O)O | RF | cytopathic effect / MTT |  | MT-4 |  | 6.9 µM |
| O=C1NC(=NCc2ccc(F)cc2)S/C1=C\c1ccc(-c2ccc(C(=O)O)c(O)c2)o1 | NL4-3 | β-galactosidase |  | TZM-bl |  | 1.6 µM |
| CCCn1ccc(=O)c2cnc(-c3ccncc3)nc21 | IIIB | p24 / trypan blue |  | H9 |  | 3.5 µM |
| CC(C)=CCC[C@]1(C)C=Cc2c(ccc3c2C(=O)C(O)=C(C2=C(C4=C(O)C(=O)c5c(ccc6c5C=C[C@@](C)(CCC=C(C)C)O6)C4=O)C(=O)c4c(ccc5c4C=C[C@@](C)(CCC=C(C)C)O5)C2=O)C3=O)O1 | RF | p24 |  | MT-4 |  | 0.02 µM |
| Cc1ncc(-c2cnc(OCCCOc3ccccc3)c(F)c2)c(N2CCC(C)(C)CC2)c1[C@H](OC(C)(C)C)C(=O)O | NL4-3 | luminescence |  | MT-2 |  | 0.0028 µM |
| O=C1NC(=NCc2ccc(Cl)c(F)c2)S/C1=C\c1ccc(-c2ccc(C(=O)O)c(O)c2)o1 | NL4-3 | β-galactosidase |  | TZM-bl |  | 2.3 µM |
| CCCCn1ccc(=O)c2cnc(-c3ccncc3)nc21 | IIIB | p24 / trypan blue |  | H9 |  | 7.5 µM |
| Cc1ncc(-c2cnc(OCCc3ccccn3)c(F)c2)c(N2CCC(C)(C)CC2)c1[C@H](OC(C)(C)C)C(=O)O | NL4-3 | luminescence |  | MT-2 |  | 0.0006 µM |
| O=C1NC(=NCCc2ccccc2)S/C1=C\c1ccc(-c2ccc(C(=O)O)c(O)c2)o1 | AD8 | β-galactosidase |  | TZM-bl |  | 1.5 µM |
| C[C@]12CCC3C(CC[C@H]4C[C@@H](CCC=C(c5cc(Cl)c(O)c(C(=O)O)c5)c5cc(Cl)c(O)c(C(=O)O)c5)CC[C@]34C)C1CC[C@@H]2CCC=C(c1cc(Cl)c(O)c(C(=O)O)c1)c1cc(Cl)c(O)c(C(=O)O)c1 | IIIB | cytopathic effect / MTT |  | CEM + CEM-SS |  | 20 µM |
| Cc1ccc(OCCOc2ccc(-c3cnc(C)c([C@H](OC(C)(C)C)C(=O)O)c3N3CCC(C)(C)CC3)cn2)cc1 | NL4-3 | luminescence |  | MT-2 |  | 0.0026 µM |
| CC(C)=CCN1CC(C)Cn2c(=S)[nH]c3cccc1c32 | A17 | cytopathic effect / XTT | RT-K103N Y181C | CEM(SS) + CEM-SS |  | >26.2 µM |
| Cc1cn([C@@H]2CC[C@H](COC(=O)CCCCCCCCC(=O)OC[C@H]3O[C@@H](n4cc(C)c(=O)[nH]c4=O)C[C@@H]3N=[N+]=[N-])O2)c(=O)[nH]c1=O | IIIB |  |  | CEM |  | 0.005 µM |
| CCn1cc(C(=O)O)c(=O)c2cc(F)c(N3CCN(c4ccccc4OC)CC3)c(OC(F)F)c21 |  | cytopathic effect / MTT |  | MOLT-4 |  | 0.11 µM |

For reference, 2 entries again:

SMILES	strain or isolate	read by	mutations	cell line	conditions	result
CCOCC(C)Oc1ncc(-c2cnc(C)c([C@H](OC(C)(C)C)C(=O)O)c2N2CCC(C)(C)CC2)cc1F	NL4-3	luminescence		MT-2		0.0028 µM
CCn1cc(C(=O)O)c(=O)c2cc(F)c(N3CCN(c4ccccc4OC)CC3)c(OC(F)F)c21		cytopathic effect / MTT		MOLT-4		0.11 µM